Experimental data from patent US9085571B2, “Nonpeptide HIV-1 protease inhibitors” (Purdue Research Foundation, priority 2008, dated 2015).
pKi: −log10 of the molar value.

Biological target: HIV-1 protease (Human immunodeficiency virus type 1 group M subtype B (isolate HXB2) (HIV-1), UniProt P04585)
Assay: Inhibition of HIV proteases (inhibition constants, method of Toth and Marshall)
Details: read-out: Inhibition of HIV-1 (Ki)
Description: Techniques for measurement of the ability of the compounds herein described to decrease the proteolytic activity of proteases encoded by HIV are well known to those skilled in the relevant art and any one or combination of such techniques can be used to measure the inhibition of protease activity of the compound herein described. One illustrative method is described by Toth and Marshall (Toth & Marshall, Int. J. Pep. Protein Res. (1990), 36, 544-550). The disclosure of the foregoing is incorporated herein in its entirety by reference. In addition, the entirety of the disclosures of each of the publications cited herein are also incorporated herein by reference.

COc1ccc(S(=O)(=O)N(CC(C)C)C[C@@H](O)[C@H](Cc2ccccc2)NC(=O)c2cccc(CN(C)Cc3csc(C)n3)c2)cc1 gave a pKi of 6.70.
